Pooled drug test results. Numbers come from NIAID ChemDB, via PubChem.

Common to all: growth or infection tests; organism: HIV-1; read-out: fold resistance

Blank or dashed fields: not listed here.

SMILES,read by,strain or isolate,changes,cell line,result
Nc1nc(NC2CC2)c2ncn([C@H]3C=C[C@@H](CO)C3)c2n1,p24,XM-AZT-resistant,RT-M41L D67N K70R T215Y K219Q,PBMC,1
CC(C)=CCOc1cc(NC(=S)c2ccoc2C)ccc1Cl,cytopathic effect / XTT,UC38-RS (RT-Y181C),RT-Y181C,CEM + CEM-SS,90
CC(C)[C@H](NC(=O)OCc1ccccn1)C(=O)N[C@@H](Cc1ccccc1)[C@@H](O)C[C@H](Cc1ccccc1)NC(=O)OCc1cccnc1,p24,NL4-3,PR-M46I L63P,MT-4,1
Cc1cc(S(N)(=O)=O)ccc1NC(=O)COc1ccc(Cl)cc1C(=O)c1cccc(C#N)n1,β-galactosidase,HXB2,RT-V106I,HeLa + HELA CD4+,~1
CCN1c2ncc(CCOc3ccc(-c4ccc(C(=O)O)s4)cc3C)cc2C(=O)N(C)c2cccnc21,p24,-,RT-K103N Y181C,C8166,>1
Cc1cn([C@H]2C=C[C@@H](CO)O2)c(=O)[nH]c1=O,p24,XM-T69SSS,RT-T69SSS L210W T215Y,MT-4,9
Cc1cc(-c2ccc[n+]([O-])c2)ccc1OCCc1cnc2c(c1)C(=O)Nc1c(C)ccnc1N2C1CC1,p24,-,RT-K103N Y181C,C8166,>1
CCC(=O)c1ccc(F)c([C@@H]2C[C@@H]2NC(=O)Nc2ccc(C#N)cn2)c1O,β-galactosidase / luminescence,LAI,NNRTI-resistant (RT K101P),TZM-bl,≥100
Cc1cc(C)cc(C(=O)c2cc(Cl)ccc2OCC(=O)Nc2ccc(S(N)(=O)=O)cc2C)c1,β-galactosidase,HXB2,RT-V106I,HeLa + HELA CD4+,~1
O=C(Nc1ccc(Cl)c(C(=O)OC2CCCCC2)c1)c1ccccc1F,syncytia,IIIB,RT-D138K,CEM,6.67
CCN1c2ncc(CCOc3ccc(CC(=O)O)c4ccccc34)cc2C(=O)Nc2c(C)cc(Cl)nc21,p24,-,RT-K103N Y181C,C8166,1–10
Cc1cc(NS(=O)(=O)CC2CCCCC2)c(C)c(C(OC(C)(C)C)C(=O)O)c1-c1ccc2c(c1)CCCO2,p24 / luminescence,NL4-3,A128T,MT-4,4
CCN1c2ncc(CCOc3ccc(C(=O)O)c4c3CCCC4)cc2C(=O)N(C)c2ccc(C)nc21,p24,-,RT-K103N Y181C,C8166,1
CCN1c2ncc(CCOc3ccc(-c4ccc(CC(=O)O)cc4O)cc3C)cc2C(=O)N(C)c2cccnc21,p24,-,RT-K103N Y181C,C8166,>1
Cc1cc(C#N)cc(C(=O)c2cc(Cl)ccc2OCC(=O)Nc2ccc(S(N)(=O)=O)nc2C)c1,cytopathic effect / propidium iodide,Nevirapine-resistant (RT Y181C),RT-Y181C,MT-4,~1
CCNC(=O)N1CCc2c(OCCc3cnc4c(c3)C(=O)N(C)c3cccnc3N4CC)ccc(C(=O)O)c2C1,p24,-,RT-K103N Y181C,C8166,1–10
O=C1Nc2ccc(Cl)cc2[C@@](/C=C/C2CC2)(C(F)(F)F)N1,-,-,RT-P225H,-,<6
CC(C)=CCOc1cc(NC(=S)c2ccsc2C)ccc1Cl,cytopathic effect / XTT,Diphenyl sulfone-resistant (RT-Y181C),RT-Y181C,CEM + CEM-SS,25
Cc1ccc(C2CC2)c(-c2ccc3c(c2C)CCCO3)c1[C@H](OC(C)(C)C)C(=O)O,p24 / luminescence,NL4-3,A128T,MT-4,2
O=C1Nc2ccc(Cl)cc2[C@@](C#CC2CC2)(C(F)(F)F)O1,-,-,V179F/Y181C,MT-4,2
COc1cc2c(cc1Cc1cccc(Cl)c1F)c(=O)c(C(=O)O)cn2[C@H](CO)C(C)C,luminescence,NL4-3,L102F,MT-4,1
CCN1c2ncc(CCOc3ccc(NC(=O)CCC(=O)O)cc3C)cc2C(=O)N(C)c2cccnc21,p24,-,RT-K103N Y181C,C8166,>1
C[C@@H]1CCO[C@H]2Cn3cc(C(=O)NCc4ccc(F)cc4F)c(=O)c(O)c3C(=O)N12,luciferase / luminescence,-,V72I,TZM-bl,1
Cn1c2ccccc2c2c1cc(C#N)c(=O)n2-c1ccc([N+](=O)[O-])cc1,cytopathic effect / MTT,C,RT-L100I K103N,MT-4,3
COc1ccnc2[nH]cc(C(=O)C(=O)N3CCN(C(=O)c4ccccc4)C[C@H]3C)c12,RT activity,NL4-3(GP120-M475I) Recombinant,GP120-M475I,MT-2,40.1
CCN1c2ncc(CCOc3ccc(-c4cccc[n+]4[O-])cc3C)cc2C(=O)N(C)c2cccnc21,p24,-,RT-K103N Y181C,C8166,1
N#Cc1cc2[nH]c3ccccc3c2n(-c2ccc([N+](=O)[O-])cc2)c1=O,cytopathic effect / MTT,F,RT-Y188L,MT-4,4
Cc1occc1C(=O)Nc1ccc(Cl)c(/C=N/N(C)C)c1,syncytia,R82150-resistant (RT L100I),RT-L100I,CEM,<8.89
CCN1c2ncc(CCOc3ccc(C4CC4C(=O)O)c4ccccc34)cc2C(=O)N(C)c2ccc(F)nc21,p24,-,RT-K103N Y181C,C8166,1–10
CCN1c2ncc(CCOc3ccc(-c4ccn(CC(=O)O)n4)cc3)cc2C(=O)N(C)c2cccnc21,p24,-,RT-K103N Y181C,C8166,1
CCN1c2ncc(CCOc3ccc(CCC(=O)O)c4ccccc34)cc2C(=O)N(C)c2ccc(Cl)nc21,p24,-,RT-K103N Y181C,C8166,1
Cc1cc(OCCCS(N)(=O)=O)ccc1NC(=O)COc1ccc(Cl)cc1C(=O)c1cc(F)cc(C(F)(F)F)c1,β-galactosidase,HXB2,RT-P236L,HeLa + HELA CD4+,~1
O=C1Nc2ccc(F)c(F)c2[C@@](C#CC2CC2)(C(F)(F)F)N1,-,-,RT-K103N Y181C,-,16.7

The first 2 rows once more:

SMILES,read by,strain or isolate,changes,cell line,result
Nc1nc(NC2CC2)c2ncn([C@H]3C=C[C@@H](CO)C3)c2n1,p24,XM-AZT-resistant,RT-M41L D67N K70R T215Y K219Q,PBMC,1
CC(C)=CCOc1cc(NC(=S)c2ccoc2C)ccc1Cl,cytopathic effect / XTT,UC38-RS (RT-Y181C),RT-Y181C,CEM + CEM-SS,90

Two numbers with a dash give a range or band. Fold resistance has wild type as its base. Conditions beyond the fields shown may differ between rows.